Measured values from several laboratories, pooled; numbers as filed in NIAID ChemDB.

Shared fields: tests in culture; agent: Candida albicans; method: broth dilution; read-out: MIC

Blank or dashed fields: not listed here. Lines come from different laboratories, so protocols vary.

compound	strain or isolate	setting	result
C=C1C[C@@H]2C[C@@H]3CCO[C@@H](O3)c3coc(n3)/C=C/C[C@H]3O[C@@H](/C(C)=C/I)[C@H](C)[C@@H](OC(=O)/C=C/C[C@@H](C1)O2)[C@H]3C	ATCC 14503		>64 µg/mL
Nn1c(SCC(O)(Cn2cncn2)c2ccc(F)cc2F)nnc1-c1ccccc1	IRFC 192		>64 µg/mL
Cn1c2ccccc2c2c(N)n[nH]c(=O)c21			250 µg/mL
Cc1nn(C(=S)Nc2ccccc2)c(=O)c2c(C)noc12	ATCC 10231		≥200 µg/mL
CCOC(=O)c1cc2ccccc2n1C			250 µg/mL
Cc1nn(-c2ccc(S(N)(=O)=O)cc2)c(=O)c2c(C)noc12	ATCC 10231		50 µg/mL
O/N=C(/COc1ccc(F)cc1)c1ccccc1	ATCC 10231	24 h	31.25 µg/mL
COC(=O)Nc1ccc2c(c1)c(C(C)=O)c(C)n2C(=O)OC			320 µg/mL
Nn1c(SCC(O)(Cn2cncn2)c2ccc(F)cc2F)nnc1-c1ccc(F)cc1	IRFC 37		>64 µg/mL
COC(=O)Nc1ccc2c(c1)nc(-c1ccccc1)n2O			200 µg/mL
Cc1nn2c(-c3ccncc3)nnc2s/c1=N/Nc1ccc(F)cc1	ATCC 10231		>100 µg/mL
O=C(COc1ccc(F)cc1)c1ccccc1	ATCC 10231	48 h	>125 µg/mL
Cc1nc2c(=O)n(C(=S)Nc3ccccc3)nc(C)c2s1	ATCC 10231		100 µg/mL
CCn1c2ccccc2c2cnn(C)c(=O)c21			250 µg/mL
Cc1nn(-c2ccc(S(=O)(=O)/N=C3\SCC(=O)N3c3ccc(F)cc3)cc2)c(=O)c2c(C)noc12	ATCC 10231		25 µg/mL
Cc1ccc(-c2nnc(SCC(O)(Cn3cncn3)c3ccc(F)cc3F)n2N)cc1	IRFC 192		>64 µg/mL
O/N=C(/COc1cccc(F)c1)c1ccccc1	ATCC 10231	24 h	>125 µg/mL
CCC(C)n1ncn(-c2ccc(N3CCN(c4ccc(OC[C@H]5CO[C@](Cn6cncn6)(c6ccc(Cl)cc6Cl)O5)cc4)CC3)cc2)c1=O	10 isolates	pH 6	0.06 µg/mL
C=C1C[C@@H]2C[C@@H]3CCO[C@@H](O3)c3cccc(c3)/C=C/C[C@H]3O[C@@H](/C(C)=C/C#N)[C@H](C)[C@@H](OC(=O)/C=C/C[C@@H](C1)O2)[C@H]3C	UCD-FR1		>64 µg/mL
COC(=O)Nc1ccc(OCC2CC(c3ccccc3)=NO2)cc1			200 µg/mL
Nn1c(SCC(O)(Cn2cncn2)c2ccc(Cl)cc2Cl)nnc1-c1cccc(Br)c1	PTCC 6027		>64 µg/mL
Cc1nc2c(=O)n(-c3ccc(S(=O)(=O)NC(=S)Nc4ccc(Cl)cc4)cc3)nc(C)c2s1	ATCC 10231		12.5 µg/mL
COc1ccc(OCC(=O)c2ccccc2)cc1	ATCC 10231	24 h	>125 µg/mL
Cc1nn2c(-c3ccncc3)nnc2s/c1=N/Nc1ccccc1	ATCC 66027		>100 µg/mL
N#Cc1c(C(=O)NO)[nH]c2ccccc12			250 µg/mL
Nc1[nH]c(=O)ncc1F	10 isolates	pH 6	0.5 µg/mL
CCOC(=O)c1c(C#N)c2ccccc2n1CC			250 µg/mL
CCC(C)CC(C)CCCCCCCCC(=O)N[C@H]1C[C@@H](O)[C@H](NCCN)NC(=O)[C@@H]2[C@@H](O)CCN2C(=O)[C@H]([C@H](O)CCN)NC(=O)[C@H]([C@H](O)[C@@H](O)c2ccc(O)cc2)NC(=O)[C@@H]2C[C@@H](O)CN2C(=O)[C@H]([C@@H](C)O)NC1=O	M61		0.06 µg/mL
COc1cc(OCC(=O)c2ccccc2)cc(OC)c1OC	ATCC 10231	24 h	>125 µg/mL
CC1=C(C)CN(c2ccc(NC(=O)OCc3ccccc3)cc2)OC1			200 µg/mL
Nn1c(SCC(O)(Cn2cncn2)c2ccc(F)cc2F)nnc1-c1ccncc1	IRFC 192		>64 µg/mL
Cc1nn2c(-c3ccncc3)nnc2sc1=NNc1ccc(Cl)cc1	ATCC 10231		>100 µg/mL
C=C1C[C@@H]2C[C@@H]3CCO[C@@H](O3)c3coc(n3)/C=C/C[C@H]3O[C@@H](/C(C)=C/I)[C@H](C)[C@@H](OC(=O)/C=C\C[C@@H](C1)O2)[C@H]3C	UCD-FR1		>64 µg/mL
COC(=O)[C@H]1[C@@H]2C[C@@H](O[C@@H]3O[C@H](C)[C@@H](O)[C@H](N)[C@@H]3O)/C=C/C=C/C=C/C=C/C=C/C=C/C=C/[C@H](C)[C@@H](O)[C@H](C)[C@H](C)OC(=O)C[C@H](O)C[C@H](O)[C@@H](O)CC[C@H](O)C[C@H](O)C[C@](O)(C[C@@H]1O)O2	15 isolates	pH 4	8 µg/mL
CCCC[C@@H](C)/C=C(C)/C=C(\C)C(=O)N/C(=C/[C@@](C)(O)/C=C/C=C/C=C/C(=O)NC1=C(O)CCC1=O)C(=O)[C@@H]1CO1	3		13 µM
CC[C@@H]([C@H](C)O)n1ncn(-c2ccc(N3CCN(c4ccc(OC[C@@H]5CO[C@@](Cn6cncn6)(c6ccc(F)cc6F)C5)cc4)CC3)cc2)c1=O	M61		<0.001 µg/mL
C=C1C[C@@H]2C[C@@H]3CCO[C@@H](O3)c3coc(n3)/C=C/C[C@H]3O[C@@H](/C(C)=C/c4coc(C[C@]5(OC)C[C@H](OC)C[C@H]([C@H](O)/C=C(C)/C=C/[C@@H](C/C=C/Cl)OC)O5)n4)[C@H](C)[C@@H](OC(=O)/C=C\C[C@@H](C1)O2)[C@H]3C	96-489		>64 µg/mL
Clc1ccccc1C(c1ccccc1)(c1ccccc1)n1ccnc1	10 isolates	pH 7	0.03 µg/mL
CC1CC2=C(O1)c1ccccc1C(=O)C2=O	1		16 µg/mL
COC(=O)Nc1cccc(OCC2CC(c3ccc([N+](=O)[O-])cc3)=NO2)c1			320 µg/mL
O=c1cc(-c2ccc(O)c(O)c2)oc2cc(O)c([C@@H]3O[C@H](CO)[C@@H](O)[C@H](O)[C@H]3O)c(O)c12	ATCC 18804		>500 µg/mL

Repeating the final 6 entries:

compound | strain or isolate | setting | result
CC[C@@H]([C@H](C)O)n1ncn(-c2ccc(N3CCN(c4ccc(OC[C@@H]5CO[C@@](Cn6cncn6)(c6ccc(F)cc6F)C5)cc4)CC3)cc2)c1=O | M61 |  | <0.001 µg/mL
C=C1C[C@@H]2C[C@@H]3CCO[C@@H](O3)c3coc(n3)/C=C/C[C@H]3O[C@@H](/C(C)=C/c4coc(C[C@]5(OC)C[C@H](OC)C[C@H]([C@H](O)/C=C(C)/C=C/[C@@H](C/C=C/Cl)OC)O5)n4)[C@H](C)[C@@H](OC(=O)/C=C\C[C@@H](C1)O2)[C@H]3C | 96-489 |  | >64 µg/mL
Clc1ccccc1C(c1ccccc1)(c1ccccc1)n1ccnc1 | 10 isolates | pH 7 | 0.03 µg/mL
CC1CC2=C(O1)c1ccccc1C(=O)C2=O | 1 |  | 16 µg/mL
COC(=O)Nc1cccc(OCC2CC(c3ccc([N+](=O)[O-])cc3)=NO2)c1 |  |  | 320 µg/mL
O=c1cc(-c2ccc(O)c(O)c2)oc2cc(O)c([C@@H]3O[C@H](CO)[C@@H](O)[C@H](O)[C@H]3O)c(O)c12 | ATCC 18804 |  | >500 µg/mL